B1: PN-SIA28 Fab (Fab, V domains shown)
VH: QVQLVESGGGVVQPGRSLRLSCAASGFPFSSYGMHWVRQAPGKGLEWVAGVSYDGSYKYYADSVKGRFTISRDSSKSTLYLQMNSLRPEDTAVYYCARPSAIFGIYIILNGLDVWGQGTTVTVSS
VL: EIVLTQSPSSVSASVGDRVTITCRATQGISSWLAWYQQKPGKPPKLLIFGASSLQSGVPSRFSGSGSGTDFTLTISSLQPEDFATYFCQQAHSFPLTFGGGTKVEIK
B2: PN-SIA28 Fab (Fab, V domains shown)
VH: B1 VH
VL: B1 VL
notes: also called PN-SIA28 Fab fragment

Tests used:
Details in all cases: both partners purified
[1] = molecular target: H18-HA (A/flat-faced bat/Peru/033/2010) (Influenza A virus A/flat-faced …, UniProt U5N1D3, strain); test: SEC
H17 HA = H17 HA ([…] stand-in A/little yellow-shouldered …, UniProt H6QM93, strain); test: SEC
[2] = molecular target: H17 HA (recombinant HA of the panel) ([…] stand-in A/little yellow-shouldered …, UniProt H6QM93, strain, biotinylated (in the BLI assay))
[3] = molecular target: H18 HA (recombinant HA of the panel) (Influenza A virus A/flat-faced …, UniProt U5N1D3, strain, biotinylated (in the BLI assay))

| Binder | binding result [1] | binding result (H17 HA) | binding result [2] | binding result [3] |
| --- | --- | --- | --- | --- |
| B1 | binds | binds |  |  |
| B2 |  |  | binds | binds |
